Pooled drug test results. Numbers come from NIAID ChemDB, via PubChem.

Shared fields: whole-cell or culture tests; agent: HIV-1; cell line: H9; measure: EC50

ECn: concentration that inhibits the pathogen or its effect by n%. Lines come from different laboratories, so protocols vary.

{"SMILES": "CN1N=C(N)c2cn([C@@H]3O[C@H](COP(=O)(O)O)[C@@H](O)[C@H]3O)c3ncnc1c23", "strain or isolate": "IIIB", "read by": "p24", "value": "0.03 µM"}
{"SMILES": "CC(=O)N[C@@H]1CCN(c2cc(C)nn3c(-c4cccc(S(C)(=O)=O)c4)c(C)nc23)C1", "read by": "p24", "value": ">1 µM"}
{"SMILES": "C=C1CC23CCC4[C@](C)(CO)CCC[C@@]4(C)C2CC[C@H]1C3", "strain or isolate": "IIIB", "read by": "p24", "value": ">100 µg/mL"}
{"SMILES": "Cc1cc(C(O)CNC(C)CCn2cnc3c2c(=O)n(C)c(=O)n3C)ccc1O", "strain or isolate": "NL4-3", "read by": "luminescence", "value": "7.96 µM"}
{"SMILES": "Cc1cccc(CNc2nc3cc(C(=O)NC(C)CO)ccc3n2C2CCCCCC2)c1C", "read by": "syncytia", "conditions": "20% FBS", "value": "5 µM"}
{"SMILES": "C=C1C[C@@]23CC[C@H]4[C@@](C)(CCC[C@@]4(C)C(=O)O)[C@@H]2CC[C@@H]1C3", "strain or isolate": "IIIB", "read by": "p24", "value": ">100 µg/mL"}
{"SMILES": "Nc1nc2c(ncn2[C@H]2C[C@H](O)[C@@H](CO)O2)c(=O)o1", "strain or isolate": "IIIB", "read by": "RT activity", "value": ">30 µg/mL"}
{"SMILES": "CN1N=C(N)c2cn([C@@H]3O[C@H](COP(=O)(O)O)[C@@H](O)[C@H]3O)c3ncnc1c23", "strain or isolate": "IIIB", "read by": "RT activity", "value": "0.02 µM"}
{"SMILES": "CSc1ccc(-c2c(C)nc3c(N4CC[C@@H](NC(C)=O)C4)cc(C)nn23)cc1", "read by": "p24", "value": "0.2 µM"}
{"SMILES": "Nc1nc2c(ncn2[C@H]2CC[C@@H](CO)O2)c(=O)o1", "strain or isolate": "IIIB", "read by": "RT activity", "value": ">30 µg/mL"}
{"SMILES": "CCN(CC)CCCC(C)Nc1ccnc2cc(Cl)ccc12", "read by": "p24", "value": "<100 µM"}
{"SMILES": "C[C@@]12CCC[C@@](C)(O)[C@H]1CC[C@@]13C[C@@H](CC[C@H]12)[C@H](C(=O)O)C3", "strain or isolate": "IIIB", "read by": "p24", "value": ">100 µg/mL"}
{"SMILES": "Cc1cccc(CNc2nc3cc(C(=O)NC(C)(CO)CO)ccc3n2C2CCCCCC2)c1C", "read by": "syncytia", "conditions": "20% FBS", "value": "5 µM"}
{"SMILES": "COc1ccc(-c2c(C)nn3c(N4CC[C@@H](NC(C)=O)C4)cc(C)nc23)cc1OC", "read by": "p24", "value": ">100 µM"}
{"SMILES": "COc1ccc([C@H]2c3c(cc4c(c3OC)OCO4)C[C@H]3CSC[C@@H]32)cc1OCc1ccccc1", "strain or isolate": "IIIB", "read by": "p24", "value": "1.09 µM"}
{"SMILES": "CC(=O)N[C@@H]1CCN(c2cc(C)nn3c(-c4ccco4)c(C)nc23)C1", "read by": "p24", "value": "0.9 µM"}
{"SMILES": "C[C@@]12CCC[C@@](C)(C=O)[C@H]1CC[C@@]13C[C@@H](CC[C@H]12)[C@](O)(CO)C3", "strain or isolate": "IIIB", "read by": "p24", "value": ">100 µg/mL"}
{"SMILES": "CCCCCCCCCCCCCCCCCCCCCCOCC(C)(COCCCCCCCCCCCCCCCCCCCCCC)CO[C@]1(C(=O)O)C[C@H](OS(=O)(=O)O)[C@@H](NC(C)=O)[C@H]([C@H](OS(=O)(=O)O)[C@@H](COS(=O)(=O)O)OS(=O)(=O)O)O1", "strain or isolate": "IIIB", "read by": "RT activity", "value": "1.5 µg/mL"}
{"SMILES": "Nc1nc2c(ncn2[C@H]2C=C[C@@H](CO)O2)c(=O)o1", "strain or isolate": "IIIB", "read by": "RT activity", "value": ">30 µg/mL"}
{"SMILES": "CC(=O)OC[C@]12[C@H](OC(C)=O)[C@H](OC(=O)c3cccnc3)[C@@H]3[C@@H](OC(=O)c4ccoc4)[C@@]14O[C@@]3(C)COC(=O)c1cccnc1[C@@H](C)[C@H](C)C(=O)O[C@@H]([C@H](OC(C)=O)[C@@H]2OC(C)=O)C4(C)O", "read by": "p24", "value": "0.172 µg/mL"}
{"SMILES": "Cc1cccc(CNc2nc3cc(C(=O)NC(C)CO)ccc3n2C2CCCCCC2)c1F", "read by": "syncytia", "conditions": "20% FBS", "value": "0.1 µM"}
{"SMILES": "COc1ccc(-c2c(C)nc3c(N4CC[C@@H](SC(C)=O)C4)cc(C)nn23)cc1OC", "read by": "p24", "value": "0.3 µM"}
{"SMILES": "CC12CCC[C@]3(C(=O)OC1)[C@@H]2CC[C@@]12C[C@@H](CC[C@H]13)[C@@](C)(O)C2", "strain or isolate": "IIIB", "read by": "p24", "value": "0.025 µM"}
{"SMILES": "Fc1ccc(OCCC(Cn2ccnc2)c2ccc(Cl)cc2Cl)cc1", "strain or isolate": "NL4-3", "read by": "luminescence", "value": "8.63 µM"}
{"SMILES": "CC(=O)OC[C@]12[C@H](OC(C)=O)[C@H](OC(C)=O)[C@@H]3[C@@H](OC(C)=O)[C@@]14O[C@@]3(C)COC(=O)c1cccnc1[C@@H](C)[C@H](C)C(=O)O[C@@H]([C@H](OC(=O)c1ccccc1)[C@@H]2OC(C)=O)C4(C)O", "read by": "p24", "value": "0.48 µg/mL"}
{"SMILES": "Cc1ccccc1CNc1nc2cc(C(=O)NC(C)(CO)CO)ccc2n1C1CCCCCC1", "read by": "syncytia", "conditions": "2% FBS", "value": "4 µM"}
{"SMILES": "COc1ccc(-c2csc3c(N4CC[C@@H](NC(C)=O)C4)nc(Cl)nc23)cc1OC", "read by": "p24", "value": ">100 µM"}
{"SMILES": "C[C@@H]1O[C@H]2O[C@H]3[C@@H](OC[C@@H](O)[C@@H]3O)OC(=O)[C@]34CCC(C)(C)C[C@@]3(C)C3=CC[C@@]5(C)[C@@](C)(CC[C@@H]6[C@](C)(CO)[C@@H](O[C@@H]7O[C@H](CO)[C@@H](O)[C@H](O)[C@H]7O[C@@H]7O[C@@H](C(=O)C[C@](C)(O)CC(=O)O[C@@H]1[C@@H](O[C@@H]1OC[C@@H](O)[C@H](O)[C@H]1O)[C@H]2O)[C@H](O)[C@H](O)[C@H]7O)[C@@H](O)C[C@@]65C)[C@]3(C)CC4", "strain or isolate": "MN", "read by": "cytopathic effect / XTT", "value": "24.9 µg/mL"}
{"SMILES": "C[C@@]12CCC[C@@](C)(O)C1CCC13C[C@H](CCC12)[C@](O)(CO)C3", "strain or isolate": "IIIB", "read by": "p24", "value": ">100 µg/mL"}
{"SMILES": "COc1cc([C@H]2c3c(cc(OC)c(OC)c3OC)C[C@H]3CSC[C@@H]32)cc(OC)c1OC", "strain or isolate": "IIIB", "read by": "p24", "value": "0.15 µM"}

A second listing of 4 rows from above:

{"SMILES": "COc1ccc(-c2c(C)nc3c(N4CC[C@@H](SC(C)=O)C4)cc(C)nn23)cc1OC", "read by": "p24", "value": "0.3 µM"}
{"SMILES": "C=C1C[C@@]23CC[C@H]4[C@@](C)(CCC[C@@]4(C)C(=O)O)[C@@H]2CC[C@@H]1C3", "strain or isolate": "IIIB", "read by": "p24", "value": ">100 µg/mL"}
{"SMILES": "CC(=O)OC[C@]12[C@H](OC(C)=O)[C@H](OC(=O)c3cccnc3)[C@@H]3[C@@H](OC(=O)c4ccoc4)[C@@]14O[C@@]3(C)COC(=O)c1cccnc1[C@@H](C)[C@H](C)C(=O)O[C@@H]([C@H](OC(C)=O)[C@@H]2OC(C)=O)C4(C)O", "read by": "p24", "value": "0.172 µg/mL"}
{"SMILES": "C[C@@]12CCC[C@@](C)(C=O)[C@H]1CC[C@@]13C[C@@H](CC[C@H]12)[C@](O)(CO)C3", "strain or isolate": "IIIB", "read by": "p24", "value": ">100 µg/mL"}